Measured values from several laboratories, pooled; numbers as filed in NIAID ChemDB.

All rows: whole-cell or culture tests

Lines come from different laboratories, so protocols vary. Percent inhibition refers to the dose given; in toxicity tests it is the harm to the cells. Blank or dashed fields: not listed here. ECn: concentration that inhibits the pathogen or its effect by n%. A number after MIC or MFC names an inhibition level or a share of isolates.

smiles,method,strain,organism,dose,endpoint,value
Cn1ncc2c1C(=O)c1cccc(O)c1C2=O,-,-,Cryptosporidium parvum,100 µM,inhibition,100%
O=C1/C(=C/c2ccccc2)Oc2cc(O)ccc21,-,-,Cryptosporidium parvum,25 µM,inhibition,17%
O=C1c2cccc(Cl)c2C(=O)c2cn[nH]c21,-,-,Cryptosporidium parvum,25 µM,inhibition,76%
C[C@@H](c1ncncc1F)[C@](O)(Cn1cncn1)c1ccc(F)cc1F,broth dilution,-,Cryptococcus gattii,-,MIC90,0.125 µg/mL
Cc1nc(NCCCCNc2ccnc3cc(Cl)ccc23)nc(-c2ccccc2[N+](=O)[O-])c1C(=O)OC(C)C,-,135L/03,Cryptococcus gattii,-,MIC99,8 µg/mL
Cc1cc(O)c2c(c1)C(=O)c1c(cnn1C)C2=O,-,-,Cryptosporidium parvum,100 µM,inhibition,42%
COc1cc(/C=C2\Oc3cc(O)cc(O[C@@H]4O[C@H](CO)[C@@H](O)[C@H](O)[C@H]4O)c3C2=O)cc(OC)c1O,-,-,Cryptosporidium parvum,50 µM,inhibition,93%
Oc1ccc(O)c(C=Nc2ccccc2O)c1,-,L-28/02,Cryptococcus gattii,-,MIC99,8 µg/mL
Cn1ncc2c1C(=O)c1c(Cl)ccc(O)c1C2=O,-,-,Cryptosporidium parvum,50 µM,inhibition,99%
COc1cc(/C=C/C=C\c2ccccc2)oc(=O)c1C,-,-,Cryptosporidium parvum,25 µM,inhibition,5%
CCOC(=O)c1c(C)nc(NCCCCNc2ccnc3cc(Cl)ccc23)nc1-c1ccccc1,-,L-28/02,Cryptococcus gattii,-,MIC99,8 µg/mL
COc1cc(/C=C2\Oc3cc(O)cc(O)c3C2=O)cc(OC)c1O,-,-,Cryptosporidium parvum,10 µM,inhibition,1%
Oc1ccccc1N=Cc1ccc(F)cc1,-,135L/03,Cryptococcus gattii,-,MIC99,16 µg/mL
CC(=O)OC[C@H]1O[C@@H](O[C@@H]2[C@@H](N=[N+]=[N-])[C@H](O)[C@H](O)[C@H]3OC(C)(C)O[C@H]32)[C@H](OC(C)=O)[C@@H](OC(C)=O)[C@H]1OC(C)=O,broth dilution / turbidity,ATCC 32264,Cryptococcus neoformans,125 µg/mL,inhibition,17.35%
CCOC(=O)c1cnc(NCCCCNc2ccnc3cc(Cl)ccc23)nc1C,-,F-10,Cryptococcus neoformans,-,MIC99,4 µg/mL
C[C@@H](c1ncncc1F)[C@](O)(Cn1cncn1)c1ccc(F)cc1F,broth dilution,A 47496,Cryptococcus gattii,-,MIC,0.008 µg/mL
CCn1nc(Cc2ccccc2)c2c1C(=O)c1c(OC(C)=O)c(C)c(C)c(OC(C)=O)c1C2=O,-,-,Cryptosporidium parvum,-,EC50,>100 µM
COc1ccc(/C=C\C=C\c2cc(OC)cc(=O)o2)cc1,-,-,Cryptosporidium parvum,50 µM,inhibition,9%
CCOC(=O)c1c(C)nc(OCCCNc2ccnc3cc(Cl)ccc23)nc1-c1ccccc1,-,L24/01,Cryptococcus gattii,-,MIC99,8 µg/mL
Cc1cccc2c1C(=O)c1cnn(C)c1C2=O,-,-,Cryptosporidium parvum,25 µM,inhibition,<10%
CCOC(=O)c1c(C)nc(NCCCNc2ccnc3cc(Cl)ccc23)nc1-c1ccccc1,-,27JF,Cryptococcus neoformans,-,MIC99,4 µg/mL
Cc1cc(O)c2c(c1Cl)C(=O)c1cn[nH]c1C2=O,-,-,Cryptosporidium parvum,25 µM,inhibition,<10%
NCCCC[C@H](NC(=O)[C@@H](N)CCCCN)C(=O)N[C@@H](CCC(N)=O)C(=O)N[C@@H](CCCN=C(N)N)C(=O)O,-,ATCC 32264,Cryptococcus neoformans,25 µM,inhibition,62%